Measured data: PubChem BioAssay AID504761 (Drosophila RNAi Screening Center, 2011)

Assay: 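Fly genes whose silencing reduces dengue virus type 2 infection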 (primary screen)
System: D.Mel-2 cells from Drosophila
Reagents: long dsRNA against Drosophila genes
Conditions: infection with dengue virus type 2; dose and infection time not stated
Measurement: 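Cells stained for dengue envelope protein and imaged; percent of infected cells per well on duplicate plates, ranked by infection, with stained nuclei counted for cell number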
Direction: infection score: higher = more virus-infected cells
Call rule: 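Very low infection ranking in both replicate wells (chance probability at most 0.065), then a retest showing infection dropped 1.5-fold or more at p below 0.05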
Calls: active = confirmed: knock-down lowers infection; inactive = not picked or not confirmed
In all, the deposit lists about 22,000 reagents; shown is an unselected part of those that have a named target and a result. In the full data, 116 (0.52%) got an active call. 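Calls depend on retest data that are not deposited; infection was ranked per plate without normalising between plates; the unit of the infection score is not given.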 Unmarked entries are inactive. Names joined by + are all predicted targets of the reagent. Further read-outs or replicates are left out here. Not stated in the record: the amount of reagent, the time to read-out.

infection score, replicate 1, by predicted target and reagent
nmdyn-D6: DRSC20355 3.37
CG31446: DRSC13111 4.17
Ndfip: DRSC11201 8.63
Nepl17: DRSC14880 5.95
CG2059: DRSC18203 5.73
Vps13D: DRSC09818 1.79; DRSC09819 0.33
CG15196: DRSC19643 1.99; DRSC24591 0.95
CG15814: DRSC19730 2.59
bcd: DRSC12624 3.92; DRSC25303 4.02
CG3649: DRSC04400 6.15; DRSC28728 19.9
CG33136: DRSC05744 1.19; DRSC29014 15.9
Lmpt: DRSC09450 1.36; DRSC09864 2.85; DRSC09865 4.8; DRSC09866 3.04; DRSC11107 1.85; DRSC21738 7.18; DRSC22921 1.08; DRSC25095 12.9; DRSC25282 8.67; DRSC29293 14.3
Rca1: DRSC03407 21.3
Obp73a: DRSC09907 2.47
Tom70: DRSC02990 5.03
CG3097: DRSC18275 4.1
Eb1: DRSC05016 20.5
CG14340: DRSC00370 5.33
CG12895: DRSC06210 5.51; DRSC25590 4.83
CG7810: DRSC03072 2.42; DRSC27997 7.13
CG31482: DRSC12582 16.5
PIP82: DRSC18694 6.42; DRSC25335 2.27
CG14260: DRSC14755 1.56
Cds: DRSC10938 8.21
lambdaTry: DRSC06137 5.83
He + NimB5: DRSC22876 1.72
CG9988: DRSC16587 3.06
CG42375 + CG9288: DRSC16468 12.2
Ncoa6: DRSC23060 1.43; DRSC25819 9.27
Apc: DRSC14114 1.21 (active)
CG12991: DRSC19511 6.23; DRSC28165 6.7
SK: DRSC17387 0.75; DRSC17887 10.6; DRSC17888 10.8; DRSC18353 4.29; DRSC27622 7.54
CG3277: DRSC00588 2.62
NKCC: DRSC12140 5.95; DRSC12311 2.28
wash: DRSC06302 10.5
park + Targ3: DRSC11617 3.11
CG6749: DRSC10704 0.64
CG13712: DRSC08321 2.68
OtopLc: DRSC18082 2.17; DRSC18083 8.19; DRSC18132 0.57; DRSC25719 1.27; DRSC25756 2.95; DRSC28477 2.09
Alg-2: DRSC07799 3.71
CG9672: DRSC20201 5.15
CG3107: DRSC04888 22.1
Rhp: DRSC20279 17.9
Lam: DRSC03359 2.11; DRSC28152 14.8
